PMC5454392, “Selective BET bromodomain inhibition as an antifungal therapeutic strategy” (Nature Communications, 2017)

These sequences were tested against T1, CaBdf1 BD2 Y425F (Candida albicans, UniProt Q5A4W8, Y425F) (assay: Histone peptide microarray binding, YF mutant). Conditions: normalized array signal.
T1 construct: made in house; host or cells: E. coli BL21(DE3), inferred from the wild-type GST construct
Design: species or system C. albicans
Experimental: In short, arrays were blocked and incubated with 1 μM of purified CaBdf1 BD1 or BD2. Arrays were incubated with recombinant BDs for 2 h at 4 °C in binding buffer (Tris-HCl 50 mM pH 7.4, NP-40 0.1%, NaCl 150 mM, glycerol 10%). […] Assays were performed in duplicate. Images were acquired on a Bio-Rad ChemiDoc XRS Imaging machine and data were quantified using the array analyser software provided by Active Motif.
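Also: normalized to spotted c-myc peptide positive control signal.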

In order of falling “CaBdf1 BD2 Normalized (0 to 100%) YF mutant” value:
1. A R T K Q T A Rme2a Kme1 pS pT G G K A P R K Q  0.293%
2. A R T K Q T A Rme2a Kac S pT G G K A P R K Q  0.293%
3. A R T K Q T A Rme2s Kac S pT G G K A P R K Q  0.293%
4. A R T K Q T A R K S pT G G Kac A P R K Q  0.293%
5. A Rme2a T Kac Q T A Rme2a K S T G G K A P R K Q  0.293%
6. A R T K Q T A Rme2a Kme2 pS pT G G K A P R K Q  0.293%
7. A R T Kme3 Q T A Rme2s Kme1 S T G G K A P R K Q  0.195%
